The test system of experiment [1] is Mtb. The following applies: mutations at Leu92 and Leu96 of ClpC1; ref Gao et al., 2015; cited from earlier work.
Experiment [2] relates to Mtb. The following applies: unpublished data.

This is an account of results in article PMC7193532 (Acta Crystallographica. Section D, Structural Biology, 2020).

Each structure is given as a SMILES string.

Take `CCC(C)C(C(=O)NC1C(=O)N(C)C(C(C)O)C(=O)NC(C(C)C)C(=O)N(C)C(CC(C)C)C(=O)NC(C(C)C)C(=O)N(C)C(C(C)C)C(=O)N(C)C(Cc2c[nH]c3cccc(OC)c23)C(=O)NC(C(C)C)C(=O)NC(C(O)c2ccccc2)C(=O)NC(C(C)C)C(=O)OC1C)N(C)C(=O)C(NC(=O)C(C(C)C)N(C)C)C(C)C` (centres unmarked) [ECU, ecumicin]: in the experiment on Mtb [1], the resistant strains result is “three strains of Mtb with resistance”.
For the compound `CN[C@H](C(=O)N[C@H](C(=O)N[C@@H]1C(=O)N(C)[C@@H]([C@@H](C)O)C(=O)N[C@@H](C(C)C)C(=O)N(C)[C@@H](CC(C)C)C(=O)N[C@@H](C(C)C)C(=O)N(C)[C@@H](C(C)C)C(=O)N(C)[C@@H](Cc2c[nH]c3cccc(OC)c23)C(=O)N[C@@H](C(C)C)C(=O)N[C@@H]([C@H](O)c2ccccc2)C(=O)N[C@@H](C(C)C)C(=O)O[C@@H]1C)C(C)C)C(C)C` [OMS-A, ohmyungsamycin A], the “MIC90 pattern for Mtb strains resistant to RUF-I and ECU” value with Mtb [2] was “a pattern consistent with ECU”.
